Results of unrelated studies side by side (data: NIAID ChemDB).

Common to all: growth or infection tests; organism: Mycobacterium tuberculosis

An empty or dashed field is not shown. ECn: concentration that inhibits the pathogen or its effect by n%. Lines come from different laboratories, so protocols vary. MIC bound: limit read from a one-dose screen. MIC50, MIC90 and the like: level of inhibition, or share of isolates inhibited. Two numbers with a dash give a range or band. Inhibition is in % at the dose shown (toxicity tests: loss of growth or viability).

structure,strain,tested at,read by,changes,setting,measure,value
O=C(Nc1ccc(OC(F)(F)F)cc1)c1cccc2nc3ccccc3nc12,H37Rv 27294,,,,,MIC,0.39 µg/mL
CC1(C)S[C@@H]2[C@H](NC(=O)[C@H](N)c3ccccc3)C(=O)N2[C@H]1C(=O)O,H37Rv,,resazurin,,,MIC,32 µg/mL
S=c1[nH]nc(-c2cnccn2)o1,H37Rv,,,,,MIC,0.1 µg/mL
CCC(C)N1CCN(c2cc(=O)c3nc4c(oc3c2)c2c(=O)c3c(O)c(C)c5c(c34)=C(O)[C@@](C)(O/C=C/[C@H](OC)[C@@H](C)[C@@H](OC(C)=O)[C@H](C)[C@H](O)[C@H](C)[C@@H](O)[C@@H](C)/C=C/C=C(/C)C(=O)N2)O5)CC1,6 strains (rifampicin-resistant),,,,,MIC90,0.025 µg/mL
N#CCCN(CCC#N)c1ccc(/C=C2/N=C(CN3C(=O)c4ccccc4C3=O)OC2=O)cc1,H37Rv,,BACTEC,,,MIC bound,>12.5 µg/mL
CC(=O)NC[C@H]1CN(c2cc(F)c(N3C[C@@H]4OC(=O)N(C)[C@@H]4C3)c(F)c2)C(=O)O1,H37Rv,,resazurin,,,MIC100,0.62 µM
O=[N+]([O-])c1ccc(N=Nc2c(Cl)c(O)c3ccccc3c2O)nc1,PAS-R,,,,,MIC,>12.5 µg/mL
CCCCCCCCOc1ccc(NC(=O)OCC[NH+]2CCCC2)cc1,My 331/88,,,,,MIC,32 µM
CC(=O)O[C@@H]1OC=C2CC[C@H]3[C@]4(C)CC[C@H]5C(C)(C)CCC[C@]5(C)[C@H]4C[C@@H](OC(C)=O)[C@]3(C)[C@H]21,H37Ra,,,,,MIC,6 µM
O=c1c2cc(O)c(O)cc2oc2cc(O)c([C@@H]3O[C@H](CO)[C@@H](O)[C@H](O)[C@H]3O)c(O)c12,H37Rv,,BACTEC,,,MIC bound,>12.5 µg/mL
CC1(C)S[C@@H]2[C@H](NC(=O)[C@H](N)c3ccc(O)cc3)C(=O)N2[C@H]1C(=O)O,H37Rv,,resazurin,,,MIC,64 µg/mL
CCCCCCN1CCC2(CC1)N=c1c(c3c4c5c(C)c(O)c3c(O)c1=NC(=O)/C(C)=C\C=C\[C@H](C)[C@H](O)[C@@H](C)[C@@H](O)[C@@H](C)[C@H](OC(C)=O)[C@H](C)[C@@H](OC)/C=C/O[C@@](C)(O5)C4=O)N2,H37Rv,,,,,MIC,0.0012 µg/mL
COCCn1c2nc(=O)n(-c3ccccc3)c(=O)c-2nc2c1CCCC2,H37Rv,,BACTEC,,,MIC bound,>12.5 µg/mL
O=C(c1ccc(-c2ccccc2)cc1)C(Br)Br,H37Rv,,,,,MIC,12.5 µg/mL
CN(C)c1ccc(O)c2c1C[C@H]1C[C@H]3[C@H](N(C)C)C(=O)C(C(N)=O)=C(O)[C@@]3(O)C(=O)C1=C2O,97 strains,,,,,MIC,>64 µg/mL
CCCCCCCCCOc1ccccc1NC(=O)OCC[NH+]1CCCC1,My 331/88,,,,,MIC,16 µM
CCCCCCCNC(=O)Nc1ccc(S(=O)(=O)Nc2cc(C)on2)cc1,H37Rv,,broth dilution / absorbance,,21 d,MIC100,500 µM
O=C(CNC(=O)OCc1ccccc1)NCC(=O)NC(Cc1c[nH]c2ccccc12)C(=O)O,H37Rv,12.5 µg/mL,BACTEC,,,inhibition,0%
O=C(c1ccc(-c2ccccc2)cc1)C(Cl)Cl,H37Rv,,,,,MIC,3.125 µg/mL
O=C1O[C@@H](Cn2ccnn2)CN1c1ccc(N2CC3(COC3)C2)c(F)c1,H37Rv,,broth dilution / fluorescence,,,MIC,3.2–3.7 µg/mL
NNC(=O)c1ccncc1,H37Rv 27294,,,,,MIC,0.19 µg/mL
O=C(Oc1c(O)c2ccccc2c2ccccc12)c1ccccc1,H37Rv,6.25 µg/mL,resazurin,,,inhibition,101%
CO/N=C(\C(=O)N[C@@H]1C(=O)N2C(C(=O)O)=C(COC(C)=O)CS[C@H]12)c1csc(N)n1,H37Rv,,resazurin,,,MBC,2 µg/mL
CCCCCCCCCCOc1ccc(NC(=O)OCC[NH+]2CCCC2)cc1,My 331/88,,,,,MIC,16 µM
CCN(CC)Cn1nc(-c2cnccn2)oc1=S,H37Rv,,,,,MIC,0.1 µg/mL
O=C(c1cccc(-c2ccccc2)c1)C(Cl)Cl,H37Rv,,,,,MIC,6.25 µg/mL
O=[N+]([O-])c1ccccc1S(=O)(=O)c1ccccc1,H37Rv,6.25 µg/mL,resazurin,,,inhibition,0%
CCCN1CCN(c2cc(=O)c3nc4c(oc3c2)c2c(=O)c3c(O)c(C)c5c(c34)=C(O)[C@@](C)(O/C=C/[C@H](OC)[C@@H](C)[C@@H](OC(C)=O)[C@H](C)[C@H](O)[C@H](C)[C@@H](O)[C@@H](C)/C=C/C=C(/C)C(=O)N2)O5)CC1,6 strains (rifampicin-resistant),,,,,MIC50,≤0.0125 µg/mL
CC(=O)NC[C@H]1CN(c2cc(F)c(N3C[C@@H]4OC(=O)N[C@@H]4C3)c(F)c2)C(=O)O1,H37Rv,,resazurin,,,MIC100,0.25 µM
COC(=O)NC[C@H]1CN(c2ccc(N3CC4(CSC4)C3)c(F)c2)C(=O)O1,H37Rv,,broth dilution / fluorescence,,,MIC,0.03–0.06 µg/mL
CCCNC(=O)Nc1ccc(S(=O)(=O)Nc2cc(C)on2)cc1,H37Rv,,broth dilution / absorbance,,14 d,MIC100,>1000 µM
COC(=O)c1cc(NC(=O)Oc2ccccn2)cc(C(=O)OC)c1,H37Rv,12.5 µg/mL,BACTEC,,,inhibition,-30%
CCCCNC(=O)Nc1ccc(S(=O)(=O)Nc2cc(C)on2)cc1,H37Rv,,broth dilution / absorbance,,21 d,MIC100,62.5 µM
Cc1cc(OC(=O)c2c(-c3ccccc3)noc2C)n(-c2ccc(NC(=O)c3c(-c4ccccc4)noc3C)cc2)n1,H37Rv,,resazurin,,,MIC bound,>6.25 µg/mL
CCCCCOc1cccc(NC(=O)OCC[NH+]2CCCC2)c1,My 331/88,,,,,MIC,62.5 µM
CC1COc2c(N3CCN(C)CC3)c(F)cc3c(=O)c(C(=O)O)cn1c23,H37Rv (ATCC 25618),,broth dilution,,,MIC,1 µg/mL
S=c1oc(-c2cnccn2)nn1CNc1ccc(Cl)cc1,H37Rv,,,,,MIC,0.1 µg/mL
Clc1ccc(C(c2ccccc2)c2ccc(OCCN3CCCCC3)c3ccccc23)cc1,H37Rv,,resazurin,,,MIC,>12.5 µg/mL
N[C@@H]1CN(c2c(F)cc3c(=O)c(C(=O)O)cn([C@@H]4C[C@@H]4F)c3c2Cl)CC12CC2,Clinical strain,,resazurin,Gyrase Asp656Tyr/Asn538Asp,,MIC,0.25 µg/mL
O=C(c1ccc(Sc2ccc(C(=O)C(Cl)Cl)cc2)cc1)C(Cl)Cl,H37Rv,,,,,MIC,1.56 µg/mL
CC(=O)NC[C@H]1CN(c2cc(F)c(N3CC4CCS(=O)(=O)CCC4C3)c(F)c2)C(=O)O1,H37Rv,,resazurin,,,MIC100,0.31 µM
Clc1nc(I)nc2c1ncn2Cc1ccccc1,H37Rv,,BACTEC,,,EC50,<12.5 µg/mL
Cc1ccc(C)c(NC2=CC(=O)C(=O)c3ccccc32)c1,H37Rv,,resazurin,,,MIC bound,<6.25 µg/mL
c1ccc(Cn2cnc3c(-c4cccs4)ncnc32)cc1,H37Rv,,BACTEC,,,EC50,<12.5 µg/mL
O=C1c2ccccc2C(=O)C2(C(c3ccccc3)c3ccccc3)N=NCC12,H37Rv,,resazurin,,,MIC bound,>6.25 µg/mL
CO[C@H]1/C=C/O[C@@]2(C)Oc3c(C)c(O)c4c(O)c(c5c(c4c3C2=O)NC2(CCN(CC(C)C)CC2)N=5)=NC(=O)/C(C)=C\C=C\[C@H](C)[C@H](O)[C@@H](C)[C@@H](O)[C@@H](C)[C@H](OC(C)=O)[C@@H]1C,H37RV (RIF-S),,,,,MBC,0.25 µg/mL
CC1COc2c(N3CCN(C)CC3)c(F)cc3c(=O)c(C(=O)O)cn1c23,11 strains (drug-resistant),,,,,MIC90,0.92 µg/mL
NC(=O)c1csc([C@@H]2O[C@H](COP(=O)(O)OP(=O)(O)OC[C@H]3O[C@@H](n4cnc5c(N)ncnc54)[C@H](O)[C@@H]3O)[C@@H](O)[C@H]2O)n1,H37Rv,,BACTEC,,,MIC bound,>12.5 µg/mL
CC12C[C@H]3OC(=O)[C@@H]1COC14OC5([C@H]2C1=O)[C@@](O)(CC[C@H]1[C@H]4C[C@@H](O)[C@@]2(O)CC=CC(=O)[C@]12C)C(=O)O[C@@]35C,H37Rv,,,,,MIC,32 µg/mL
CC(C)C1NC(=O)C2=CN(Cc3ccccc3)C=CC2NC(=O)C(C(C)C)NC(=O)C2=CN(Cc3ccccc3)C=CC2NC1=O,H37Rv,,BACTEC,,,MIC bound,>12.5 µg/mL
CCCCOc1cccc(NC(=O)OCC[NH+]2CCCC2)c1,My 331/88,,,,,MIC,125 µM
CCOC(=O)C(CC(C)C)NC(=O)c1cc(Br)c(C(Br)Br)c2c1Nc1c(c(C)c3oc(=O)c(C)nc3c1C(=O)NC(CC(C)C)C(=O)OCC)O2,H37Rv,,BACTEC,,,MIC bound,>12.5 µg/mL
CCCCN1CCC2(CC1)N=c1c(c3c4c5c(C)c(O)c3c(O)c1=NC(=O)/C(C)=C\C=C\[C@H](C)[C@H](O)[C@@H](C)[C@@H](O)[C@@H](C)[C@H](OC(C)=O)[C@H](C)[C@@H](OC)/C=C/O[C@@](C)(O5)C4=O)N2,H37Rv,,,,,MIC,0.0012 µg/mL
COC1C(O)=C2C(=O)OC(C)(O)/C=C/C=C/C=C/C=C\C(c3ccccc3)NC(=O)/C=C/C=C/C=C/C=C/C2(C)C1O,RMP-R,,,,,MIC,>12.5 µg/mL
O=C([C@@H](O)CO)N1CC=C(c2c(F)cc(N3C[C@H](COc4ccon4)OC3=O)cc2F)CC1,AZD5847-resistant 8.10,,,G2270T,,MIC,16 µg/mL
COC(=O)C1[C@@H](OC(=O)CC(CCCCCCCCCCC(C)C)OC(=O)CC(C)CC(=O)OC2OC(C)C(OC)C(OC)C2OC)CN(C)C([C@@H](OC2O[C@H](CN)[C@@H](O)[C@H]2O)C2OC(n3ccc(=O)[nH]c3=O)[C@H](O)[C@@H]2O)C(=O)N1C,H37Rv,,,,,MIC,6.25 µg/mL
Clc1nc(-c2cccs2)nc2c1ncn2Cc1ccccc1,H37Rv,,BACTEC,,,EC50,>12.5 µg/mL
COC(=O)[C@H]1[C@H]2C[C@@H]3c4[nH]c5cccc(OC)c5c4CCN3C[C@H]2CC[C@H]1O,H37Rv,,BACTEC,,,MIC bound,>12.5 µg/mL
O=C(Nc1cccc2ccccc12)c1cccc2nc3ccccc3nc12,H37Rv 27294,,,,,MIC,1.56 µg/mL
CC(=O)NC[C@H]1CN(c2ccc(N3CCOCC3)c(F)c2)C(=O)O1,AZD5847-resistant,,,T460C Cys154Arg,,MIC,16 µg/mL
CCCCCNC(=O)Nc1ccc(S(=O)(=O)Nc2cc(C)on2)cc1,H37Rv,,broth dilution / absorbance,,21 d,MIC100,500 µM
O=C1C=C(Nc2ccc([N+](=O)[O-])cc2)c2ccccc2C1=O,H37Rv,,resazurin,,,MIC bound,<6.25 µg/mL
NNC(=O)c1ccncc1,H37Rv,,broth dilution / absorbance,,21 d,MIC100,1 µM
Cc1ccc(N=C2C(=Nc3ccc(C)cc3)N(c3ccc(C)cc3)C(=S)N2C(=O)c2ccccc2)cc1,H37Rv,12.5 µg/mL,BACTEC,,,inhibition,0%
O=C(c1ccc(Oc2ccccc2)cc1)C(Br)Br,H37Rv,,,,,MIC,25 µg/mL
O=C(Nc1cccc(Cl)c1)c1cccc2nc3ccccc3nc12,H37Rv 27294,,,,,MIC,0.39 µg/mL
NC(=S)N=Nc1c(O)n(CCCO)c2ccccc12,H37Rv,,BACTEC,,,MIC bound,>12.5 µg/mL
CCCCCCCN1CCC2(CC1)N=c1c(c3c4c5c(C)c(O)c3c(O)c1=NC(=O)/C(C)=C\C=C\[C@H](C)[C@H](O)[C@@H](C)[C@@H](O)[C@@H](C)[C@H](OC(C)=O)[C@H](C)[C@@H](OC)/C=C/O[C@@](C)(O5)C4=O)N2,H37Rv,,,,,MIC,0.0012 µg/mL
CCCOc1ccccc1NC(=O)OCC[NH+]1CCCC1,My 331/88,,,,,MIC,1000 µM
C=C(OCC)c1nc(Cl)c2ncn(Cc3ccccc3)c2n1,H37Rv,,BACTEC,,,EC50,>12.5 µg/mL
CCCCCCCCOc1ccccc1NC(=O)OCC[NH+]1CCCC1,My 331/88,,,,,MIC,16 µM
CN(C)c1ccc2c(c1)c1cc(N(C)C)ccc1n2Cc1ccccc1,H37Rv,,BACTEC,,,MIC bound,>12.5 µg/mL
C=CC(C)(C)c1[nH]c2c(CC=C(C)C)cc(CC=C(C)C)cc2c1C[C@@H]1NC(=O)[C@H](C)NC1=O,H37Ra,,,,,MIC,170 µM
CCOc1cccc(NC(=O)OCC[NH+]2CCCC2)c1,My 331/88,,,,,MIC,>1000 µM

A second listing of 10 rows from above:

structure,strain,tested at,read by,changes,setting,measure,value
CC1(C)S[C@@H]2[C@H](NC(=O)[C@H](N)c3ccccc3)C(=O)N2[C@H]1C(=O)O,H37Rv,,resazurin,,,MIC,32 µg/mL
N#CCCN(CCC#N)c1ccc(/C=C2/N=C(CN3C(=O)c4ccccc4C3=O)OC2=O)cc1,H37Rv,,BACTEC,,,MIC bound,>12.5 µg/mL
CCC(C)N1CCN(c2cc(=O)c3nc4c(oc3c2)c2c(=O)c3c(O)c(C)c5c(c34)=C(O)[C@@](C)(O/C=C/[C@H](OC)[C@@H](C)[C@@H](OC(C)=O)[C@H](C)[C@H](O)[C@H](C)[C@@H](O)[C@@H](C)/C=C/C=C(/C)C(=O)N2)O5)CC1,6 strains (rifampicin-resistant),,,,,MIC90,0.025 µg/mL
S=c1[nH]nc(-c2cnccn2)o1,H37Rv,,,,,MIC,0.1 µg/mL
S=c1oc(-c2cnccn2)nn1CNc1ccc(Cl)cc1,H37Rv,,,,,MIC,0.1 µg/mL
CC(C)C1NC(=O)C2=CN(Cc3ccccc3)C=CC2NC(=O)C(C(C)C)NC(=O)C2=CN(Cc3ccccc3)C=CC2NC1=O,H37Rv,,BACTEC,,,MIC bound,>12.5 µg/mL
O=C(c1ccc(Sc2ccc(C(=O)C(Cl)Cl)cc2)cc1)C(Cl)Cl,H37Rv,,,,,MIC,1.56 µg/mL
O=C(c1cccc(-c2ccccc2)c1)C(Cl)Cl,H37Rv,,,,,MIC,6.25 µg/mL
O=C(c1ccc(-c2ccccc2)cc1)C(Br)Br,H37Rv,,,,,MIC,12.5 µg/mL
CCCOc1ccccc1NC(=O)OCC[NH+]1CCCC1,My 331/88,,,,,MIC,1000 µM